ChEMBL document CHEMBL5346973 (J Med Chem, 2023)

By UniProt entry, the sequences of proteins in these tests, tags left out. Where a name states a change or a piece, a line headed by the entry shows the natural chain unless it says otherwise.
UniProt P43144: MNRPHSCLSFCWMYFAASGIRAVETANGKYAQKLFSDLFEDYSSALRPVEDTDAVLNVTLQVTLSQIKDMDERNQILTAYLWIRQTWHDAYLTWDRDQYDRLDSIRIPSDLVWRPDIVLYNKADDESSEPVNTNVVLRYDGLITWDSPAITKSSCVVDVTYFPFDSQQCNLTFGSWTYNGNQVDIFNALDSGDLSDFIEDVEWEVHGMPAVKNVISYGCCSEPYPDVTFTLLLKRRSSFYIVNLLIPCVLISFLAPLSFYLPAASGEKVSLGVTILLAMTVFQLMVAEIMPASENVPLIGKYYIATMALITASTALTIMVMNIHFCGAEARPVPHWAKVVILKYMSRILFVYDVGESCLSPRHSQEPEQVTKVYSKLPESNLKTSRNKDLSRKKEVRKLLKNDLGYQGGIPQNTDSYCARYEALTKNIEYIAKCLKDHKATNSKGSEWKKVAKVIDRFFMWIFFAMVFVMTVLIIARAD
UniProt Q9JLB5: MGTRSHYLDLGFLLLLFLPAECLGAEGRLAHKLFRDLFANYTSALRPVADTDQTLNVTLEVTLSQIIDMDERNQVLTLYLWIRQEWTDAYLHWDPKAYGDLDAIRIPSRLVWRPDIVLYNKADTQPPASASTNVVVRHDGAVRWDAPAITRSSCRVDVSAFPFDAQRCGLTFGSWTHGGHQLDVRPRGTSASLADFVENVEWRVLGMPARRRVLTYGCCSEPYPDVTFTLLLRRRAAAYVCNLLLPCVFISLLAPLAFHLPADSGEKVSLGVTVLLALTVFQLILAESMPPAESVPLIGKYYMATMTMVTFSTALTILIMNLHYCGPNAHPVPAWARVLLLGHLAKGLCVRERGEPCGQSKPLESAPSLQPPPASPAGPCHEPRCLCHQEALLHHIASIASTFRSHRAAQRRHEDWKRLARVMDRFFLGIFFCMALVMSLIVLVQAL
UniProt P04757, whole entry, looked up: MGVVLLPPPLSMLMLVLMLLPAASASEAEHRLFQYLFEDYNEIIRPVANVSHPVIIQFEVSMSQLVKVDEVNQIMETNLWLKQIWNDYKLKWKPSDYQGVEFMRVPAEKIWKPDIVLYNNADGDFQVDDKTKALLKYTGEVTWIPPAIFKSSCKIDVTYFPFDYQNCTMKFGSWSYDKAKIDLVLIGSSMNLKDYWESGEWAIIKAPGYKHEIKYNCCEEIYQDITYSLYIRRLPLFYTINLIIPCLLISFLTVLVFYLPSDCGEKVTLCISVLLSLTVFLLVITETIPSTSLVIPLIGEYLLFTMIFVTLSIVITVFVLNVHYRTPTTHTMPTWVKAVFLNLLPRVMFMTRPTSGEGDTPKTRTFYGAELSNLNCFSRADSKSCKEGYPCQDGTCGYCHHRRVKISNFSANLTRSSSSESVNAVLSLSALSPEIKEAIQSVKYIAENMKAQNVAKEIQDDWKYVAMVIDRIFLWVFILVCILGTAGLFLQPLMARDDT
UniProt P12390, whole entry, looked up: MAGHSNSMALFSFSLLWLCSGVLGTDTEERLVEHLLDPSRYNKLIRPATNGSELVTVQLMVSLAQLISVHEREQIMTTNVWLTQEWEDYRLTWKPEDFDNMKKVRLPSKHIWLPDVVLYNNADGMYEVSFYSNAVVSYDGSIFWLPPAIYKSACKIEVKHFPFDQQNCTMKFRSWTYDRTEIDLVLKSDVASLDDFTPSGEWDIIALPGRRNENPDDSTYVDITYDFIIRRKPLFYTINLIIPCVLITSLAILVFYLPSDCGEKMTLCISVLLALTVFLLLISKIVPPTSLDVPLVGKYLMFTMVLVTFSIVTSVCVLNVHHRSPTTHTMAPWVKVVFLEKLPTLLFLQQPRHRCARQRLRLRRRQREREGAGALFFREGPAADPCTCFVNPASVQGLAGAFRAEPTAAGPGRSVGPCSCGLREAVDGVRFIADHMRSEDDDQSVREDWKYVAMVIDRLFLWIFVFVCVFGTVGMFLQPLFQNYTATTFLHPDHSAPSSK
UniProt P12389: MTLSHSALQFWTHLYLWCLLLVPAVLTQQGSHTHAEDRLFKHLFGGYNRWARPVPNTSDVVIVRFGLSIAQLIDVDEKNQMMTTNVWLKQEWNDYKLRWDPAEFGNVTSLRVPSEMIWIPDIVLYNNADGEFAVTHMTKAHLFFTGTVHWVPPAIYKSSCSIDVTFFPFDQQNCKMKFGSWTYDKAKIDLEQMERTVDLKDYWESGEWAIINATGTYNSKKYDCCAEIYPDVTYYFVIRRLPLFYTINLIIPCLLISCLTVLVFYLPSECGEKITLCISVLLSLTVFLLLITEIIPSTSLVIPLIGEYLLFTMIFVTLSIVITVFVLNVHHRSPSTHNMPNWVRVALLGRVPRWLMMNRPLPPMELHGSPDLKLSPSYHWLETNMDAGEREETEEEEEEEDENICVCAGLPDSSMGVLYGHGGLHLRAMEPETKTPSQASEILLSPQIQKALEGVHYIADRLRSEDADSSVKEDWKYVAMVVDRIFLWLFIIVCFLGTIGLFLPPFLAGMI
UniProt Q9UGM1: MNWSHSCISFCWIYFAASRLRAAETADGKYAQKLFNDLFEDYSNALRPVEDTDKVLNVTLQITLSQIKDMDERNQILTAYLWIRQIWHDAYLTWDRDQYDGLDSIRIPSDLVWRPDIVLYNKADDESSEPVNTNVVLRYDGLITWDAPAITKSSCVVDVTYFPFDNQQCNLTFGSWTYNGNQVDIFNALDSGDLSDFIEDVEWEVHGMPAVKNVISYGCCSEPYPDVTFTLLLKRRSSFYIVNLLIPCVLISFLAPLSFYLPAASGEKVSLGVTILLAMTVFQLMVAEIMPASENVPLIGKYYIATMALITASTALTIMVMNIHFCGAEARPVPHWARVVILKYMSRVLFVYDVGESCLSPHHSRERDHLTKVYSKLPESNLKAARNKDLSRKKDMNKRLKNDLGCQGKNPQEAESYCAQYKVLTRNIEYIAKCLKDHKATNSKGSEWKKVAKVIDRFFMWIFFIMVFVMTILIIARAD
UniProt Q9GZZ6: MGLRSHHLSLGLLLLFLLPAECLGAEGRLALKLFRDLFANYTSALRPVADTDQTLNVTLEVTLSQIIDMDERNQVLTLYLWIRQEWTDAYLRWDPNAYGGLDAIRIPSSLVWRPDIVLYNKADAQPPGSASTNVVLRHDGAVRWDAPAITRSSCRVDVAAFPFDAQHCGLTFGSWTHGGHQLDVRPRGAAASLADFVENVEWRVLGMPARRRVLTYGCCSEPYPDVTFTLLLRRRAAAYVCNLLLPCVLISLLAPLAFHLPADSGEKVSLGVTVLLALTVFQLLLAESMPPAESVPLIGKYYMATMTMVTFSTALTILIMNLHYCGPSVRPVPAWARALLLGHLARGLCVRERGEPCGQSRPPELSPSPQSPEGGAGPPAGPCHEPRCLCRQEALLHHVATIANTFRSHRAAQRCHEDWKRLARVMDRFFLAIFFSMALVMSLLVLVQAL
UniProt P12392, whole entry, looked up: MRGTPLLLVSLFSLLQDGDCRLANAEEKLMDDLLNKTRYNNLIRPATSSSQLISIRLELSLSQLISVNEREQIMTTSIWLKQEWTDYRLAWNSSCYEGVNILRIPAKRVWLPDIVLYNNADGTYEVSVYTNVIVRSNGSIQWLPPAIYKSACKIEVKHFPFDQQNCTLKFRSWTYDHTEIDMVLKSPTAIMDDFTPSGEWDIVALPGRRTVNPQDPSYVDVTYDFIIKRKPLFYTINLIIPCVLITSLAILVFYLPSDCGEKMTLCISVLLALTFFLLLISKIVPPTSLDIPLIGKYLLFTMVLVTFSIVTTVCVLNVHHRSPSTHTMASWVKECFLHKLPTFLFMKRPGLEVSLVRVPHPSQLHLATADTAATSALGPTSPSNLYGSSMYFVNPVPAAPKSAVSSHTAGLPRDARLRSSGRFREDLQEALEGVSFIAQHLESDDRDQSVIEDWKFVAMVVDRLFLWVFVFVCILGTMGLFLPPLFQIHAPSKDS
UniProt P09483: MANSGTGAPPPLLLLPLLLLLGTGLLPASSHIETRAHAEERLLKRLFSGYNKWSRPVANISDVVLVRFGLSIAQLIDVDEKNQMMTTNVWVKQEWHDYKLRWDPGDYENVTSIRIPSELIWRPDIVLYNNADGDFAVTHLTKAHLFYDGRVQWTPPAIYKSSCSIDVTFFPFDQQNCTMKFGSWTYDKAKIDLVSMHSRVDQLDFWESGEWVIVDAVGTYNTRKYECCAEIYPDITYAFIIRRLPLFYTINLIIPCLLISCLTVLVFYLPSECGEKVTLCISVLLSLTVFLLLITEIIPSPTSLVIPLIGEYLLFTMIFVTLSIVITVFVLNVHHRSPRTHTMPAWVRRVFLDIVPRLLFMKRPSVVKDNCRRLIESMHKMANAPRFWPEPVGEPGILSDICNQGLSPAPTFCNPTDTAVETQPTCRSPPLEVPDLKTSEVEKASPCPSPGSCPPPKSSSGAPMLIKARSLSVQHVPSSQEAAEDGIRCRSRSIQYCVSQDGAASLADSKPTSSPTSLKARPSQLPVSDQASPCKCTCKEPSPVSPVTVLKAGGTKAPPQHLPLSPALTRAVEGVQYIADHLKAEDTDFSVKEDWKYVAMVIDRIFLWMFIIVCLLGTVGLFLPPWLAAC
UniProt P43143, whole entry, looked up: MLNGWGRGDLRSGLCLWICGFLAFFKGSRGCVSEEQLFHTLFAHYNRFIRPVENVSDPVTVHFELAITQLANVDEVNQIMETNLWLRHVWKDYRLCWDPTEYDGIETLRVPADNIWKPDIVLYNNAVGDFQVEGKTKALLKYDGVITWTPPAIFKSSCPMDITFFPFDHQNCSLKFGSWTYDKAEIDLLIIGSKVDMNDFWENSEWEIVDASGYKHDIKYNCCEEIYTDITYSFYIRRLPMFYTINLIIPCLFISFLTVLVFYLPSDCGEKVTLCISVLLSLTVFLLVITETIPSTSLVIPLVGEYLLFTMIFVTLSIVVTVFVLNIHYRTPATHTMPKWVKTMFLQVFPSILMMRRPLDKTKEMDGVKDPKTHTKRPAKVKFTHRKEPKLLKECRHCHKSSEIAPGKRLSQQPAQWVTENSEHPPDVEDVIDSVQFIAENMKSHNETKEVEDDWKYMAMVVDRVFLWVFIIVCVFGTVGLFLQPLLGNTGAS
UniProt Q05941, whole entry, looked up: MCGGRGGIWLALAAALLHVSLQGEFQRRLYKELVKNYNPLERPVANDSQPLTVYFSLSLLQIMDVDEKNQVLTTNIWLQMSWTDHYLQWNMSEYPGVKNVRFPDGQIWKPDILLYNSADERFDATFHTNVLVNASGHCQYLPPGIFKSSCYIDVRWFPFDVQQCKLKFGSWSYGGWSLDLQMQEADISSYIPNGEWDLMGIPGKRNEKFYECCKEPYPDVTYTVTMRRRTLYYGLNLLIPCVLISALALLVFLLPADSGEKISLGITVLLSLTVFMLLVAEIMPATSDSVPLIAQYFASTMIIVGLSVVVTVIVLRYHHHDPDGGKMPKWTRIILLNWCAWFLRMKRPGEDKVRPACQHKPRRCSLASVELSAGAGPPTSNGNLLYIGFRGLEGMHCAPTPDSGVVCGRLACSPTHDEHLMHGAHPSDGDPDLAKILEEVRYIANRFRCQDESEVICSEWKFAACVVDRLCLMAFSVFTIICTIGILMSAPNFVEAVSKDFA

Key:
[1] = target: Nicotinic acetylcholine receptor alpha9/alpha10 (Rattus norvegicus) (UniProt P43144+Q9JLB5); assay: Antagonist activity at rat alpha9alpha10 nACh receptor expressed in Xenopus oocyte assessed as inhibition of acetylcholine-induced response at -70 mV holding potential by measuring ratio of IC50 by voltage-clamp based electrophysiological assay relative to GeXIVA; format: cell-based; details: filed as antagonist
[2] = target: Neuronal acetylcholine receptor; alpha3/beta2 (Rattus norvegicus) (UniProt P04757+P12390); assay: Antagonist activity at rat alpha3beta2 nACh receptor expressed in Xenopus oocyte assessed as inhibition of acetylcholine-induced response at -70 mV holding potential by measuring ratio of IC50 by voltage-clamp based electrophysiological assay relative to GeXIVA[1,4]; details: filed as antagonist
[3] = target: Neuronal acetylcholine receptor; alpha2/beta2 (Rattus norvegicus) (UniProt P12389+P12390); assay: Antagonist activity at rat alpha2beta2 nACh receptor expressed in Xenopus oocyte assessed as inhibition of acetylcholine-induced response at -70 mV holding potential by measuring ratio of IC50 by voltage-clamp based electrophysiological assay relative to GeXIVA[1,4]; details: filed as antagonist
[4] = target: Neuronal acetylcholine receptor; alpha9/alpha10 (Homo sapiens) (UniProt Q9UGM1+Q9GZZ6); assay: Antagonist activity at human alpha9alpha10 nACh receptor expressed in Xenopus oocyte assessed as inhibition of acetylcholine-induced response at -70 mV holding potential by measuring ratio of IC50 by voltage-clamp based electrophysiological assay relative to GeXIVA[1,4]; details: filed as antagonist
[5] = target: Neuronal acetylcholine receptor; alpha2/beta4 (Rattus norvegicus) (UniProt P12389+P12392); assay: Antagonist activity at rat alpha2beta4 nACh receptor expressed in Xenopus oocyte assessed as inhibition of acetylcholine-induced response at -70 mV holding potential by measuring ratio of IC50 by voltage-clamp based electrophysiological assay relative to GeXIVA[1,4]; details: filed as antagonist
[6] = target: Neuronal acetylcholine receptor; alpha4/beta4 (Rattus norvegicus) (UniProt P09483+P12392); assay: Antagonist activity at rat alpha4beta4 nACh receptor expressed in Xenopus oocyte assessed as inhibition of acetylcholine-induced response at -70 mV holding potential by measuring ratio of IC50 by voltage-clamp based electrophysiological assay relative to GeXIVA[1,4]; details: filed as antagonist
[7] = target: Neuronal acetylcholine receptor; alpha3/beta4 (Rattus norvegicus) (UniProt P04757+P12392); assay: Antagonist activity at rat alpha3beta4 nACh receptor expressed in Xenopus oocyte assessed as inhibition of acetylcholine-induced response at -70 mV holding potential by measuring ratio of IC50 by voltage-clamp based electrophysiological assay relative to GeXIVA[1,4]; details: filed as antagonist
[8] = target: Nicotinic acetylcholine receptor alpha6/alpha3/beta4 (Rattus norvegicus) (UniProt P04757+P12392+P43143); assay: Antagonist activity at rat alpha6/alpha3beta4 nACh receptor expressed in Xenopus oocyte assessed as inhibition of acetylcholine-induced response at -70 mV holding potential by measuring ratio of IC50 by voltage-clamp based electrophysiological assay relative to GeXIVA[1,4]; details: filed as antagonist
Rattus norvegicus = organism: Rattus norvegicus; assay: Selectivity ratio of IC50 for rat alpha7 nACh receptor to IC50 for rat alpha9alpha10 nACh receptor
[9] = target: Neuronal acetylcholine receptor subunit alpha-7 (Rattus norvegicus) (UniProt Q05941); assay: Antagonist activity at rat alpha7 nACh receptor expressed in Xenopus oocyte assessed as inhibition of acetylcholine-induced response at -70 mV holding potential by measuring ratio of IC50 by voltage-clamp based electrophysiological assay relative to GeXIVA; details: filed as antagonist
[10] = target: Neuronal acetylcholine receptor; alpha4/beta2 (Rattus norvegicus) (UniProt P09483+P12390); assay: Antagonist activity at rat alpha4beta2 nACh receptor expressed in Xenopus oocyte assessed as inhibition of acetylcholine-induced response at -70 mV holding potential by measuring ratio of IC50 by voltage-clamp based electrophysiological assay relative to GeXIVA[1,4]; details: filed as antagonist

SMILES | Ratio IC50 [1] | Ratio IC50 [2] | Ratio IC50 [3] | Ratio IC50 [4] | Ratio IC50 [5] | Ratio IC50 [6] | Ratio IC50 [7] | Ratio IC50 [8] | Ratio IC50 (Rattus norvegicus) | Ratio IC50 [9] | Ratio IC50 [10]
CC(C)[C@H](NC(=O)[C@@H]1CSSC[C@H](NC(=O)[C@@H](N)[C@@H](C)O)C(=O)N[C@@H](CCCNC(=N)N)C(=O)N[C@@H](CO)C(=O)N[C@@H](CO)C(=O)NCC(=O)N[C@@H](CCCNC(=N)N)C(=O)N[C@@H](Cc2ccc(O)cc2)C(=O)N[C@H]2CSSC[C@H](NC(=O)[C@H](Cc3ccc(O)cc3)NC(=O)[C@H](CCCNC(=N)N)NC(=O)[C@H](CCCNC(=N)N)NC(=O)[C@H](CCCNC(=N)N)NC(=O)[C@H](CCCNC(=N)N)NC(=O)[C@H](CC(=O)O)NC(=O)[C@H](Cc3ccc(O)cc3)NC(=O)[C@@H]3CCCN3C(=O)[C@H](CO)NC(=O)[C@H](CCCNC(=N)N)NC2=O)C(=O)N[C@@H](CCCNC(=N)N)C(=O)N[C@@H](CCCNC(=N)N)C(=O)N[C@@H](C)C(=O)N[C@@H]([C@@H](C)O)C(=O)N[C@@H](CC(=O)O)C(=O)N[C@@H](C)C(=O)N1)C(=O)O | 0.1 | 1.2 | 6.8 | 0.1 | 0.9 | 2.3 | 1.8 | 3 | 971 | 0.5 | 4.3
CC[C@H](C)[C@@H]1NC(=O)[C@H](CCCNC(=N)N)NC(=O)[C@H](CCCNC(=N)N)NC(=O)[C@@H](NC(=O)[C@H](Cc2ccc(O)cc2)NC(=O)[C@H](CCCNC(=N)N)NC(=O)[C@H](CCCNC(=N)N)NC(=O)[C@H](CCCNC(=N)N)NC(=O)[C@H](CCCNC(=N)N)NC(=O)[C@H](CC(=O)O)NC(=O)[C@H](Cc2ccc(O)cc2)NC(=O)[C@@H]2CCCN2C(=O)[C@H](CO)NC(=O)[C@H](CCCNC(=N)N)NC(=O)[C@@H]2CSSC[C@H](NC(=O)[C@@H](N)[C@@H](C)O)C(=O)N[C@@H](CCCNC(=N)N)C(=O)N[C@@H](CO)C(=O)N[C@@H](CO)C(=O)NCC(=O)N[C@@H](CCCNC(=N)N)C(=O)N[C@@H](Cc3ccc(O)cc3)C(=O)N2)CSSC[C@@H](C(=O)N[C@H](C(=O)O)C(C)C)NC(=O)[C@H](C)NC(=O)[C@@H](C)NC(=O)[C@H]([C@@H](C)O)NC1=O | 1.1 |  |  |  |  |  |  |  | 112 | 2.2 | 
CC[C@H](C)[C@@H]1NC(=O)[C@H](CCCNC(=N)N)NC(=O)[C@H](CCCNC(=N)N)NC(=O)[C@@H]2CSSC[C@H](NC(=O)[C@H](Cc3ccc(O)cc3)NC(=O)[C@H](CCCNC(=N)N)NC(=O)CNC(=O)[C@H](CO)NC(=O)[C@H](CO)NC(=O)[C@H](CCCNC(=N)N)NC(=O)[C@@H](NC(=O)[C@@H](N)[C@@H](C)O)CSSC[C@@H](C(=O)N[C@H](C(=O)O)C(C)C)NC(=O)[C@H](C)NC(=O)[C@H](CC(=O)O)NC(=O)[C@H]([C@@H](C)O)NC1=O)C(=O)N[C@@H](CCCNC(=N)N)C(=O)N[C@@H](CO)C(=O)N1CCC[C@H]1C(=O)N[C@@H](Cc1ccc(O)cc1)C(=O)N[C@@H](CC(=O)O)C(=O)N[C@@H](CCCNC(=N)N)C(=O)N[C@@H](CCCNC(=N)N)C(=O)N[C@@H](CCCNC(=N)N)C(=O)N[C@@H](CCCNC(=N)N)C(=O)N[C@@H](C)C(=O)N2 | 2.3 |  |  |  |  |  |  |  | 201 | 2.7 | 
CC[C@H](C)[C@@H]1NC(=O)[C@H](CCCNC(=N)N)NC(=O)[C@H](CCCNC(=N)N)NC(=O)[C@@H]2CSSC[C@H](NC(=O)[C@H](Cc3ccc(O)cc3)NC(=O)[C@H](CCCNC(=N)N)NC(=O)CNC(=O)[C@H](CO)NC(=O)[C@H](CO)NC(=O)[C@H](CCCNC(=N)N)NC(=O)[C@@H](NC(=O)[C@@H](N)[C@@H](C)O)CSSC[C@@H](C(=O)N[C@H](C(=O)O)C(C)C)NC(=O)[C@H](C)NC(=O)[C@H](CC(=O)O)NC(=O)[C@H](C)NC1=O)C(=O)N[C@@H](CCCNC(=N)N)C(=O)N[C@@H](CO)C(=O)N1CCC[C@H]1C(=O)N[C@@H](Cc1ccc(O)cc1)C(=O)N[C@@H](CC(=O)O)C(=O)N[C@@H](CCCNC(=N)N)C(=O)N[C@@H](CCCNC(=N)N)C(=O)N[C@@H](CCCNC(=N)N)C(=O)N[C@@H](CCCNC(=N)N)C(=O)N[C@@H](Cc1ccc(O)cc1)C(=O)N2 | 2.2 |  |  |  |  |  |  |  | 198 | 2.5 | 
CC[C@H](C)[C@@H]1NC(=O)[C@H](CCCNC(=N)N)NC(=O)[C@H](CCCNC(=N)N)NC(=O)[C@@H](NC(=O)[C@H](Cc2ccc(O)cc2)NC(=O)[C@H](CCCNC(=N)N)NC(=O)[C@H](CCCNC(=N)N)NC(=O)[C@H](CCCNC(=N)N)NC(=O)[C@H](CCCNC(=N)N)NC(=O)[C@H](C)NC(=O)[C@H](Cc2ccc(O)cc2)NC(=O)[C@@H]2CCCN2C(=O)[C@H](CO)NC(=O)[C@H](CCCNC(=N)N)NC(=O)[C@@H]2CSSC[C@H](NC(=O)[C@@H](N)[C@@H](C)O)C(=O)N[C@@H](CCCNC(=N)N)C(=O)N[C@@H](CO)C(=O)N[C@@H](CO)C(=O)NCC(=O)N[C@@H](CCCNC(=N)N)C(=O)N[C@@H](Cc3ccc(O)cc3)C(=O)N2)CSSC[C@@H](C(=O)N[C@H](C(=O)O)C(C)C)NC(=O)[C@H](C)NC(=O)[C@H](CC(=O)O)NC(=O)[C@H]([C@@H](C)O)NC1=O | 1.2 |  |  |  |  |  |  |  | 40 | 0.9 | 
CC[C@H](C)[C@@H]1NC(=O)[C@H](CCCNC(=N)N)NC(=O)[C@H](CCCNC(=N)N)NC(=O)[C@@H]2CSSC[C@H](NC(=O)[C@H](Cc3ccc(O)cc3)NC(=O)[C@H](CCCNC(=N)N)NC(=O)CNC(=O)[C@H](CO)NC(=O)[C@H](CO)NC(=O)[C@H](CCCNC(=N)N)NC(=O)[C@@H](NC(=O)[C@@H](N)[C@@H](C)O)CSSC[C@@H](C(=O)N[C@H](C(=O)O)C(C)C)NC(=O)[C@H](C)NC(=O)[C@H](CC(=O)O)NC(=O)[C@H]([C@@H](C)O)NC1=O)C(=O)N[C@@H](CCCNC(=N)N)C(=O)N[C@@H](CO)C(=O)N[C@@H](C)C(=O)N[C@@H](Cc1ccc(O)cc1)C(=O)N[C@@H](CC(=O)O)C(=O)N[C@@H](CCCNC(=N)N)C(=O)N[C@@H](CCCNC(=N)N)C(=O)N[C@@H](CCCNC(=N)N)C(=O)N[C@@H](CCCNC(=N)N)C(=O)N[C@@H](Cc1ccc(O)cc1)C(=O)N2 | 0.6 |  |  |  |  |  |  |  | 178 | 0.6 | 
CC[C@H](C)[C@@H]1NC(=O)[C@H](CCCNC(=N)N)NC(=O)[C@H](CCCNC(=N)N)NC(=O)[C@@H]2CSSC[C@H](NC(=O)[C@H](Cc3ccc(O)cc3)NC(=O)[C@H](CCCNC(=N)N)NC(=O)CNC(=O)[C@H](CO)NC(=O)[C@H](CO)NC(=O)[C@H](CCCNC(=N)N)NC(=O)[C@@H](NC(=O)[C@@H](N)[C@@H](C)O)CSSC[C@@H](C(=O)N[C@H](C(=O)O)C(C)C)NC(=O)[C@H](C)NC(=O)[C@H](CC(=O)O)NC(=O)[C@H]([C@@H](C)O)NC1=O)C(=O)N[C@@H](CCCNC(=N)N)C(=O)N[C@@H](CO)C(=O)N1CCC[C@H]1C(=O)N[C@@H](C)C(=O)N[C@@H](CC(=O)O)C(=O)N[C@@H](CCCNC(=N)N)C(=O)N[C@@H](CCCNC(=N)N)C(=O)N[C@@H](CCCNC(=N)N)C(=O)N[C@@H](CCCNC(=N)N)C(=O)N[C@@H](Cc1ccc(O)cc1)C(=O)N2 | 1.3 |  |  |  |  |  |  |  | 234 | 1.6 | 
